Results of unrelated studies side by side (data: NIAID ChemDB).

Common to all: tests in culture; agent: Mycobacterium avium complex; endpoint: MIC

Conditions beyond the fields shown may differ between rows.

structure | strain | value
NCC[C@H](O)C(=O)N[C@@H]1C[C@H](N)[C@@H](O[C@H]2O[C@H](CN)[C@@H](O)[C@H](O)[C@H]2O)[C@H](O)[C@H]1O[C@H]1O[C@H](CO)[C@@H](O)[C@H](N)[C@H]1O | 101 | 16 µg/mL
CN[C@@H]1[C@H](O[C@H]2[C@H](O[C@H]3[C@H](O)[C@@H](O)[C@H](N=C(N)N)[C@@H](O)[C@@H]3N=C(N)N)O[C@@H](C)[C@]2(O)C=O)O[C@@H](CO)[C@H](O)[C@H]1O | TMC 1467 | 0.05 µg/mL
CN1CCN(c2cc3c(cc2F)c(=O)c(C(=O)O)cn3-c2ccc(F)cc2)CC1 | 3218 | 16 µg/mL
CC(C)(N)C1CCN(c2c(F)cc3c(=O)c(C(=O)O)cn(C4CC4)c3c2F)C1 | 1172733 | 4 µg/mL
CC(C)N=c1cc2n(-c3ccc(Cl)cc3)c3ccccc3nc-2cc1Nc1ccc(Cl)cc1 | 101 | 0.5 µg/mL
CC(C)Sc1nc2ccccc2[nH]1 | MY330/88 | 500 µM
CC[C@@H](CO)NCCN[C@@H](CC)CO | LPR | 16 µg/mL
COc1cccc(CSc2nc3ccccc3[nH]2)c1 | MY330/88 | 32 µM
C[C@@H]1CN(c2c(F)c(N)c3c(=O)c(C(=O)O)cn(C4CC4)c3c2F)C[C@H](C)N1 | 101 | 2 µg/mL
NCC[C@H](O)C(=O)N[C@@H]1C[C@H](N)[C@@H](O[C@H]2O[C@H](CN)[C@@H](O)[C@H](O)[C@H]2O)[C@H](O)[C@H]1O[C@H]1O[C@H](CO)[C@@H](O)[C@H](N)[C@H]1O | Isolate 64 | 12.5 µg/mL
Brc1cccc(CSc2nc3ccccc3[nH]2)c1 | MY330/88 | >62 µM
C[C@@H](O)[C@H]1C(=O)N2C(C(=O)O)=C(SCCN=CN)C[C@H]12 | 31 strains | 8 µg/mL
CCC1CCN(c2c(F)cc3c(=O)c(C(=O)O)cn(C4CC4)c3c2F)C1 | 1915112 | 4 µg/mL
CO[C@H]1/C=C/O[C@@]2(C)Oc3c(C)c(O)c4c(O)c(c(/C=N/N5CCN(C/C=C/c6ccccc6)CC5)c(O)c4c3C2=O)NC(=O)/C(C)=C\C=C\[C@H](C)[C@H](O)[C@@H](C)[C@@H](O)[C@@H](C)[C@H](OC(C)=O)[C@@H]1C | LR-25 | ≤0.015 µg/mL
CC[C@H]1OC(=O)[C@H](C)[C@@H](O[C@H]2C[C@@](C)(OC)[C@@H](O)[C@H](C)O2)[C@H](C)[C@@H](O[C@@H]2O[C@H](C)C[C@H](N(C)C)[C@H]2O)[C@](C)(OC)C[C@@H](C)C(=O)[C@H](C)[C@@H](O)[C@]1(C)O | 3216 | 2 µg/mL
CN[C@@H]1[C@H](O[C@H]2[C@H](O[C@H]3[C@H](O)[C@@H](O)[C@H](N=C(N)N)[C@@H](O)[C@@H]3N=C(N)N)O[C@@H](C)[C@]2(O)C=O)O[C@@H](CO)[C@H](O)[C@H]1O | 13034 (serotype 18) | 100 µg/mL
CC[C@H]1OC(=O)[C@H](C)[C@@H](O[C@H]2C[C@@](C)(OC)[C@@H](O)[C@H](C)O2)[C@H](C)[C@@H](O[C@@H]2O[C@H](C)C[C@H](N(C)C)[C@H]2O)[C@](C)(OC)C[C@@H](C)C(=O)[C@H](C)[C@@H](O)[C@]1(C)O | LPR | 1 µg/mL
O=C(O)c1cn(C2CC2)c2c(F)c(N3CCC(NC4CC4)C3)c(F)cc2c1=O | 1988557 | 1 µg/mL
CO[C@@]1(NC(=O)C(C(=O)O)c2ccc(O)cc2)C(=O)N2C(C(=O)O)=C(CSc3nnnn3C)CO[C@@H]21 | 31 strains | 32 µg/mL
NC[C@H]1O[C@H](O[C@H]2[C@H](O[C@@H]3O[C@H](CO)[C@@H](O)[C@H]3O)[C@@H](O)[C@H](N)C[C@@H]2N)[C@H](N)[C@@H](O)[C@@H]1O | Isolate 53 | 3.13 µg/mL
CCN1CCN(C(=O)NC(C(=O)N[C@@H]2C(=O)N3C(C(=O)O)=C(CSc4nnnn4C)CS[C@H]23)c2ccc(O)cc2)C(=O)C1=O | 31 strains | 64 µg/mL
NCC[C@H](O)C(=O)N[C@@H]1C[C@H](N)[C@@H](O[C@H]2O[C@H](CN)[C@@H](O)[C@H](O)[C@H]2O)[C@H](O)[C@H]1O[C@H]1O[C@H](CO)[C@@H](O)[C@H](N)[C@H]1O | 1295/HIV- | 2 µg/mL
CO/N=C(\C(=O)N[C@@H]1C(=O)N2C(C(=O)O)=C(COC(C)=O)CS[C@H]12)c1csc(N)n1 | 35 isolates | 6.25 µg/mL
NC1CCCCN(c2c(F)cc3c(=O)c(C(=O)O)cn(C4CC4)c3c2F)C1=O | 1172733 | 32 µg/mL
NC[C@H]1O[C@H](O[C@H]2[C@H](O)[C@@H](O[C@H]3O[C@H](CO)[C@@H](O)[C@H](N)[C@H]3O)[C@H](N)C[C@@H]2N)[C@H](O)[C@@H](O)[C@@H]1O | N-325 (HIV-) | 4 µg/mL
CC1(C)S[C@@H]2[C@H](NC(=O)Cc3ccccc3)C(=O)N2[C@H]1C(=O)O | 31 strains | 16 µg/mL
Fc1ccccc1CSc1nc2ccccc2[nH]1 | MY330/88 | >125 µM
O=C(O)c1cn(C2CC2)c2c(F)c(N3CCNCC3)c(F)cc2c1=O | 1760694 | 4 µg/mL
NCCC[C@H](N)CC(=O)N[C@H]1CNC(=O)[C@H]([C@H]2C[C@H](O)NC(N)=N2)NC(=O)/C(=C/NC(N)=O)NC(=O)[C@H](CO)NC(=O)[C@H](CO)NC1=O | Isolate 135 | 100 µg/mL
NNC(=O)c1ccncc1 | 13011 (serotype 16) | 0.8 µg/mL
CCN(CC)CC1CCN(c2c(F)cc3c(=O)c(C(=O)O)cn(C4CC4)c3c2F)C1 | 1915112 | 2 µg/mL
CO[C@H]1/C=C/O[C@@]2(C)Oc3c(C)c(O)c4c(O)c(c(/C=N/N5CCN(C6CCCC6)CC5)c(O)c4c3C2=O)NC(=O)/C(C)=C\C=C\[C@H](C)[C@H](O)[C@@H](C)[C@@H](O)[C@@H](C)[C@H](OC(C)=O)[C@@H]1C | Serotype 6 | 2.5 µg/mL
CC[C@@H](CO)NCCN[C@@H](CC)CO | 3220 | 32 µg/mL
CCCCSc1nc2ccccc2[nH]1 | MY330/88 | 125 µM
CO[C@H]1/C=C/O[C@@]2(C)Oc3c(C)c(O)c4c(O)c(c(/C=N/N5CCN(C)CC5)c(O)c4c3C2=O)NC(=O)/C(C)=C\C=C\[C@H](C)[C@H](O)[C@@H](C)[C@@H](O)[C@@H](C)[C@H](OC(C)=O)[C@@H]1C | 1423/HIV+ | 8 µg/mL
CC[C@H]1OC(=O)[C@H](C)[C@@H](O[C@H]2C[C@@](C)(OC)[C@@H](O)[C@H](C)O2)[C@H](C)[C@@H](O[C@@H]2O[C@H](C)C[C@H](N(C)C)[C@H]2O)[C@](C)(O)C[C@@H](C)C(=O)[C@H](C)[C@@H](O)[C@]1(C)O | 31 strains | 4 µg/mL
CC1(CN)CCN(c2c(F)cc3c(=O)c(C(=O)O)cn(C4CC4)c3c2F)C1 | 1172733 | 32 µg/mL
NC(=S)c1ccc(CSc2nc3ccccc3[nH]2)cc1 | MY330/88 | 62 µM
NC[C@@H]1O[C@H](O[C@H]2[C@@H](O)[C@H](O[C@@H]3[C@@H](O)[C@H](N)C[C@H](N)[C@H]3O[C@H]3O[C@H](CO)[C@@H](O)C[C@H]3N)O[C@@H]2CO)[C@H](N)[C@@H](O)[C@@H]1O[C@H]1O[C@H](CO)[C@@H](O)[C@H](O)[C@@H]1O | TMC 1469 | 6.25 µg/mL
NC[C@H]1O[C@H](O[C@H]2[C@H](O)[C@@H](O[C@H]3O[C@H](CO)[C@@H](O)[C@H](N)[C@H]3O)[C@H](N)C[C@@H]2N)[C@H](O)[C@@H](O)[C@@H]1O | isolate C-22 23 25 36 41 33 | >400 µg/mL
NC[C@@H]1O[C@H](O[C@H]2[C@@H](O)[C@H](O[C@@H]3[C@@H](O)[C@H](N)C[C@H](N)[C@H]3O[C@H]3O[C@H](CO)[C@@H](O)[C@H](O)[C@H]3N)O[C@@H]2CO)[C@H](N)[C@@H](O)[C@@H]1O | 163 | <1.56 µg/mL
CO[C@H]1/C=C/O[C@@]2(C)Oc3c(C)c(O)c4c(O)c(c5c(c4c3C2=O)NC2(CCN(CC(C)C)CC2)N=5)=NC(=O)/C(C)=C\C=C\[C@H](C)[C@H](O)[C@@H](C)[C@@H](O)[C@@H](C)[C@H](OC(C)=O)[C@@H]1C | 242-5 | 0.125 µg/mL
NC[C@H]1O[C@H](O[C@H]2[C@H](O)[C@@H](O[C@H]3O[C@H](CO)[C@@H](O)[C@H](N)[C@H]3O)[C@H](N)C[C@@H]2N)[C@H](N)[C@@H](O)[C@@H]1O | Isolate 53 | 6.25 µg/mL
CO/N=C(/C(=O)N[C@@H]1C(=O)N2C(C(=O)O)=C(COC(N)=O)CS[C@H]12)c1ccco1 | 31 strains | 32 µg/mL
CN(C)c1c(F)c(N2CCC(N(C)C)C2)c(F)c2c1c(=O)c(C(=O)O)cn2C1CC1 | 1172733 | 32 µg/mL

Repeating the final 2 entries:

structure	strain	value
CO/N=C(/C(=O)N[C@@H]1C(=O)N2C(C(=O)O)=C(COC(N)=O)CS[C@H]12)c1ccco1	31 strains	32 µg/mL
CN(C)c1c(F)c(N2CCC(N(C)C)C2)c(F)c2c1c(=O)c(C(=O)O)cn2C1CC1	1172733	32 µg/mL